Values from PubChem BioAssay AID1259414 (Drosophila RNAi Screening Center, 2018)

- Screen: 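Genome-wide screen for host control of endosymbiont load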 (primary screen)
- Cells: Drosophila JW18 cells infected with Wolbachia
- Reagents: long dsRNA against Drosophila genes, 0.25 µg dsRNA per well of a 384-well plate
- Timing: 5 days
- Conditions: cells persistently infected with Wolbachia before knock-down; no added drug
- Read-out: 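Imaged fluorescence in situ signal for Wolbachia 23S rRNA per DAPI-counted host cell, given as a robust z-score within each plate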
- Reading the numbers: Wolbachia per cell robust z: higher = more Wolbachia per host cell than the plate typical
- Call rule: 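Hit when robust z is 1.5 or more, or -1.5 or less, in at least two of three replicates; excludes dsRNAs with several or no targets, genes not expressed in JW18 and well A1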
In all, the deposit lists about 24,000 reagents; shown is a random part of those that have a named target and a result. Of all reagents, about 1,210 (5%) got an active call. 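Inactive calls also include excluded dsRNAs with several or no targets, genes unexpressed in JW18, and well A1, regardless of score.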 A number with no mark means an inactive call. Names joined by + are all predicted targets of the reagent.

CR43669 + CR43670 + CR43671 [DRSC01556] | Wolbachia per cell robust z, rep 1 = 0.526; Wolbachia per cell robust z, rep 2 = -0.0772; Wolbachia per cell robust z, rep 3 = 0.604
GatB (Glutamyl-tRNA amidotransferase, subunit B) [DRSC15807] | Wolbachia per cell robust z, rep 1 = -0.743; Wolbachia per cell robust z, rep 2 = -1.04; Wolbachia per cell robust z, rep 3 = -0.101
GatB (Glutamyl-tRNA amidotransferase, subunit B) [DRSC27887] | Wolbachia per cell robust z, rep 1 = 0.343; Wolbachia per cell robust z, rep 2 = -0.22; Wolbachia per cell robust z, rep 3 = -1.43
CG8777 [DRSC07263] | Wolbachia per cell robust z, rep 1 = 1.37; Wolbachia per cell robust z, rep 2 = 0.54; Wolbachia per cell robust z, rep 3 = -0.231
Fis1 (Fission, mitochondrial 1) [DRSC07772] | Wolbachia per cell robust z, rep 1 = -0.66 (active); Wolbachia per cell robust z, rep 2 = -2.23; Wolbachia per cell robust z, rep 3 = -2.58
CG14424 [DRSC18472] | Wolbachia per cell robust z, rep 1 = -1.07; Wolbachia per cell robust z, rep 2 = 0.0706; Wolbachia per cell robust z, rep 3 = -1.47
CG14424 [DRSC29124] | Wolbachia per cell robust z, rep 1 = 1.03; Wolbachia per cell robust z, rep 2 = 0.318; Wolbachia per cell robust z, rep 3 = 0.865
CG33632 [DRSC37817] | Wolbachia per cell robust z, rep 1 = 1.25; Wolbachia per cell robust z, rep 2 = -3.19; Wolbachia per cell robust z, rep 3 = 0.617
sha (shavenoid) [DRSC06331] | Wolbachia per cell robust z, rep 1 = -3.61; Wolbachia per cell robust z, rep 2 = -3.42; Wolbachia per cell robust z, rep 3 = -0.872
sut4 (sugar transporter 4) [DRSC07703] | Wolbachia per cell robust z, rep 1 = -1.71; Wolbachia per cell robust z, rep 2 = -1.59; Wolbachia per cell robust z, rep 3 = -3.04
sut4 (sugar transporter 4) [DRSC24885] | Wolbachia per cell robust z, rep 1 = -5.09; Wolbachia per cell robust z, rep 2 = -0.554; Wolbachia per cell robust z, rep 3 = -0.712
LysE (Lysozyme E) [DRSC08675] | Wolbachia per cell robust z, rep 1 = -0.411 (active); Wolbachia per cell robust z, rep 2 = -1.57; Wolbachia per cell robust z, rep 3 = -2.99
Cyt-c-p (Cytochrome c proximal) [DRSC03310] | Wolbachia per cell robust z, rep 1 = 0.642; Wolbachia per cell robust z, rep 2 = 0.686; Wolbachia per cell robust z, rep 3 = -1.66
comm3 [DRSC09993] | Wolbachia per cell robust z, rep 1 = 0.425; Wolbachia per cell robust z, rep 2 = -1.83; Wolbachia per cell robust z, rep 3 = 0.544
comm3 [DRSC09994] | Wolbachia per cell robust z, rep 1 = 0.407; Wolbachia per cell robust z, rep 2 = 0.138; Wolbachia per cell robust z, rep 3 = 0.0353
comm3 [DRSC09995] | Wolbachia per cell robust z, rep 1 = 0.134; Wolbachia per cell robust z, rep 2 = 0.479; Wolbachia per cell robust z, rep 3 = 0.392
Ugt304A1 (UDP-glycosyltransferase family 304 member A1) [DRSC15127] | Wolbachia per cell robust z, rep 1 = -0.272; Wolbachia per cell robust z, rep 2 = 0.0049; Wolbachia per cell robust z, rep 3 = 0.717
Ugt304A1 (UDP-glycosyltransferase family 304 member A1) [DRSC26693] | Wolbachia per cell robust z, rep 1 = 0.137; Wolbachia per cell robust z, rep 2 = -1.08; Wolbachia per cell robust z, rep 3 = -1.73
cav (caravaggio) [DRSC15995] | Wolbachia per cell robust z, rep 1 = 0.392; Wolbachia per cell robust z, rep 2 = 0.664; Wolbachia per cell robust z, rep 3 = 1.09
cav (caravaggio) [DRSC26206] | Wolbachia per cell robust z, rep 1 = -1.05; Wolbachia per cell robust z, rep 2 = -1.12; Wolbachia per cell robust z, rep 3 = 0.0443
CG9133 + CG9130 [DRSC08624] | Wolbachia per cell robust z, rep 1 = -4.9; Wolbachia per cell robust z, rep 2 = -6.07; Wolbachia per cell robust z, rep 3 = -3.35
CG9133 + CG9130 [DRSC08625] | Wolbachia per cell robust z, rep 1 = -0.679; Wolbachia per cell robust z, rep 2 = -1.46; Wolbachia per cell robust z, rep 3 = -0.277
CG33137 [DRSC22131] | Wolbachia per cell robust z, rep 1 = -1.13; Wolbachia per cell robust z, rep 2 = -1.77; Wolbachia per cell robust z, rep 3 = -1.42
CG13016 [DRSC06271] | Wolbachia per cell robust z, rep 1 = -1.04; Wolbachia per cell robust z, rep 2 = 1.56; Wolbachia per cell robust z, rep 3 = -0.115
CG34148 + P5CDh2 [DRSC13519] | Wolbachia per cell robust z, rep 1 = 0.426; Wolbachia per cell robust z, rep 2 = 1.34; Wolbachia per cell robust z, rep 3 = 0.0278
Ac3 (Adenylate cyclase 3) [DRSC03692] | Wolbachia per cell robust z, rep 1 = -0.705; Wolbachia per cell robust z, rep 2 = 0.931; Wolbachia per cell robust z, rep 3 = 0.747
E(spl)m4-BFM (Enhancer of split m4, Bearded family member) [DRSC16992] | Wolbachia per cell robust z, rep 1 = 0.371; Wolbachia per cell robust z, rep 2 = -1.18; Wolbachia per cell robust z, rep 3 = 1.33
E(spl)m4-BFM (Enhancer of split m4, Bearded family member) [DRSC27642] | Wolbachia per cell robust z, rep 1 = -1.24; Wolbachia per cell robust z, rep 2 = -1.79; Wolbachia per cell robust z, rep 3 = -1.09
alien [DRSC03482] | Wolbachia per cell robust z, rep 1 = -1.52 (active); Wolbachia per cell robust z, rep 2 = 2.23; Wolbachia per cell robust z, rep 3 = 2.08
CG7579 [DRSC10885] | Wolbachia per cell robust z, rep 1 = 0.0257; Wolbachia per cell robust z, rep 2 = -1.26; Wolbachia per cell robust z, rep 3 = 0.24
